Results as given in paper PMC9393390 (Frontiers in Pharmacology, 2022).

Molecular target: T1, SARS-CoV-2-RBD (S-RBD) (Severe acute respiratory syndrome coronavirus 2, UniProt P0DTC2)
T1 construct: purchased Sino Biological
Assay: Surface plasmon resonance (SPR) binding to immobilized S-RBD
Settings: 25 °C, 1:1 binding model, read-out: S-RBD K D

Substance | Kd [µM]
Aescin | 3.74
Teichomycin | 47.9
